Pooled drug test results. Numbers come from NIAID ChemDB, via PubChem.

Common to all: whole-cell or culture tests; species: Herpes simplex virus 1; cells: HEL; method: cytopathic effect; read-out: EC50

ECn is the concentration giving n% inhibition of infection, replication or growth.

{"compound": "Cc1c(-c2ccc(C(F)(F)F)cc2)[nH]c2nc3c(ncn3COCCO)c(=O)n12", "strain or isolate": "F", "value": "1.92 µg/mL"}
{"compound": "Nc1nc2c(ncn2COC(CO)CO)c(=O)[nH]1", "strain or isolate": "HU-3", "value": "0.0028 µM"}
{"compound": "CCCCCCCCC#Cc1c[nH]c(=O)[nH]c1=O", "strain or isolate": "KOS", "value": ">40 µM"}
{"compound": "C/C(=N/Nc1nc(-c2ccccc2)cs1)c1ccc(NC(=O)CN2C(=O)c3ccccc3S2(=O)=O)cc1", "strain or isolate": "KOS", "mutations": "TK-deficient acyclovir-resistant", "value": "20 µM"}
{"compound": "CCCCCCCCC#Cc1cn(S(=O)(=O)c2ccc(C)cc2)c(=O)[nH]c1=O", "strain or isolate": "KOS", "value": ">200 µM"}
{"compound": "O=c1c2ncn(COCCO)c2nc2[nH]c(-c3ccccc3)c(Cc3ccccc3)n12", "strain or isolate": "KOS", "value": ">16 µg/mL"}
{"compound": "O=C1CSc2nnc(-c3cn(-c4ccccc4)nc3-c3ccccc3)n2N1", "strain or isolate": "KOS", "value": ">16 µg/mL"}
{"compound": "Nc1ccn(C[C@@H](CO)OCP(=O)(O)O)c(=O)n1", "strain or isolate": "KOS", "value": "2 µM"}
{"compound": "Cc1cn([C@@H]2C[C@H](OC(C(=O)O)P(=O)(O)O)[C@@H](O)[C@H]2O)c(=O)[nH]c1=O", "strain or isolate": "KOS", "value": ">250 µM"}
{"compound": "Cc1ccc(S(=O)(=O)n2cc(I)c(=O)[nH]c2=O)cc1", "strain or isolate": "KOS", "value": ">200 µM"}
{"compound": "Cc1ccc(/C=N/NC(=O)c2ccccc2S(=O)(=O)NC(C)C)cc1", "strain or isolate": "KOS", "mutations": "TK-deficient acyclovir-resistant", "value": ">100 µM"}
{"compound": "O=C(O)C(O[C@@H]1CC[C@H](n2cc(F)c(=O)[nH]c2=O)C1)P(=O)(O)O", "strain or isolate": "KOS", "value": ">250 µM"}
{"compound": "O=c1[nH]c(=O)n([C@H]2C[C@H](O)[C@@H](CO)O2)cc1/C=C/Br", "strain or isolate": "B2006 (TK-)", "value": ">601 µM"}
{"compound": "O=c1c2ncn(COCCO)c2nc2[nH]c(-c3ccc(F)cc3)cn12", "strain or isolate": "KOS", "value": ">16 µg/mL"}
{"compound": "Nc1nc2c(ncn2COCCO)c(=O)[nH]1", "strain or isolate": "KOS", "value": "0.4 µM"}
{"compound": "CCOC(=O)C1Sc2nnc(-c3cn(-c4ccccc4)nc3-c3ccccc3)n2NC1=O", "strain or isolate": "KOS", "value": ">80 µg/mL"}
{"compound": "CC(C)NS(=O)(=O)c1ccccc1C(=O)NNC(=O)c1ccc(Cl)cc1", "strain or isolate": "KOS", "value": ">100 µM"}
{"compound": "CC(=O)Nn1c(-c2cn(-c3ccccc3)nc2-c2ccccc2)n[nH]c1=S", "strain or isolate": "KOS", "value": ">80 µg/mL"}
{"compound": "COc1ccc(-c2[nH]c3nc4c(ncn4COCCO)c(=O)n3c2C)cc1", "strain or isolate": "TK-", "value": ">16 µg/mL"}
{"compound": "O=C(Nn1c(-c2cn(-c3ccccc3)nc2-c2ccccc2)n[nH]c1=S)c1ccccc1", "strain or isolate": "KOS (TK-)", "value": ">16 µg/mL"}
{"compound": "CCCCCCC#Cc1c[nH]c(=O)[nH]c1=O", "strain or isolate": "KOS", "value": ">200 µM"}
{"compound": "Nc1ccn(C[C@@H](CO)OCP(=O)(O)O)c(=O)n1", "strain or isolate": "HU-5", "value": "3.32 µM"}
{"compound": "c1ccc(C2=Nn3c(nnc3-c3cn(-c4ccccc4)nc3-c3ccccc3)SC2)cc1", "strain or isolate": "KOS (TK-)", "value": ">3.2 µg/mL"}
{"compound": "Cc1ccc(C)c(NC(=O)CN2C(=O)c3ccccc3S2(=O)=O)c1", "strain or isolate": "KOS", "value": ">100 µM"}

For reference, 2 entries again:

{"compound": "Nc1nc2c(ncn2COCCO)c(=O)[nH]1", "strain or isolate": "KOS", "value": "0.4 µM"}
{"compound": "Cc1c(-c2ccc(C(F)(F)F)cc2)[nH]c2nc3c(ncn3COCCO)c(=O)n12", "strain or isolate": "F", "value": "1.92 µg/mL"}

Conditions beyond the fields shown may differ between rows.